Pooled drug test results. Numbers come from NIAID ChemDB, via PubChem.

All rows: growth or infection tests; agent: Herpes simplex virus 1

Blank or dashed fields: not listed here. Conditions beyond the fields shown may differ between rows. ECn is the concentration giving n% inhibition of infection, replication or growth.

structure	cell line	read by	endpoint	strain or isolate	value
C=Cc1cn([C@H]2C[C@H](O)[C@@H](CO)O2)c(=S)[nH]c1=O	RPMI8226	cytopathic effect	EC50	KOS (TK+)	1.22 µM
CC1(CO)CCC(Cn2nnc3c(Cl)ncnc32)C1(C)C	E6SM	cytopathic effect	EC50	TK-/TK+ (VMW 1837)	40 µg/mL
C[C@H]1[C@H](O)[C@@H](CO)O[C@H]1n1cc(F)c(=O)[nH]c1=O	RPMI8226	cytopathic effect	EC50	KOS	>67.5 µg/mL
O=c1[nH]c(=O)n([C@H]2C[C@H](O)[C@@H](CO)O2)cc1I	HELF	plaque count	EC50	VR-3	0.28 µg/mL
O=CC(OC(=O)c1cc(O)c(O)c(O)c1Oc1cc2c(c(O)c1O)-c1c(cc(O)c(O)c1O)C(=O)OC(C(OC(=O)c1cc(O)c(O)c(O)c1)C(C=O)OC(=O)c1cc(O)c(O)c(O)c1)C(O)COC2=O)C(OC(=O)c1cc(O)c(O)c(O)c1)C1OC(=O)c2cc(O)c(O)c(O)c2-c2c(cc(O)c(O)c2O)C(=O)OCC1O	CV-1	plaque count	EC50	HF	0.039 µg/mL
C[C@H]1[C@H](O)[C@@H](CO)O[C@H]1n1cc(Br)c(=O)[nH]c1=O	RPMI8226	cytopathic effect	EC50	KOS	0.21 µg/mL
CC(C)(C)c1cn([C@H]2C[C@H](O)[C@@H](CO)O2)c(=O)[nH]c1=O	E6SM	cytopathic effect	EC50	KOS McIntyre F	253 µM
Nc1nc2c(ncn2CC[C@@H](O)CO)c(=O)[nH]1	VERO	plaque count	EC50	C42 (acyclovir-resistant)	230 µM
O=c1[nH]c(=S)n([C@@H]2O[C@H](CO)[C@@H](O)[C@@H]2O)cc1/C=C/Br	RPMI8226	cytopathic effect	EC50	KOS (TK+)	23.9 µM
O=c1[nH]c(=O)n([C@H]2C[C@H](O)[C@@H](CO)O2)cc1F	HELF	plaque count	EC50	77	55 µM
Nc1ccn(C[C@@H](CO)OCP(=O)(O)O)c(=O)n1	MRC-5	plaque count	EC50	HMC (WILD TYPE)	6.5 µM
O=c1[nH]c(=O)n([C@H]2C[C@H](O)[C@@H](CO)O2)cc1C1CC1	E6SM	cytopathic effect	EC50	KOS McIntyre F	59 µM
Nc1nc2c(ncn2COC(CO)CO)c(=O)[nH]1	HEL	cytopathic effect	EC50	B2006 (TK-)	16 µM
O=c1[nH]c(=O)n([C@@H]2O[C@H](CO)[C@@H](O)[C@@H]2O)cc1/C=C/Br	CCRF-HSV-B	plaque count	EC50	VR-3	0.052 µg/mL
Nc1ccn(C[C@@H](CO)OCP(=O)(O)O)c(=O)n1	HFF	plaque count	EC50	HL-3	1.7 µg/mL
O=c1[nH]c(=O)n([C@@H]2O[C@H](CO)[C@@H](O)[C@@H]2O)cc1/C=C/Br	HELF	plaque count	EC50	V3	0.55 µM
C[C@H]1/C=C/[C@@]2(C)CC[C@@H](C(C)(C)O)[C@@H]2[C@@H](O)C[C@](C)(O)/C=C/C1	VERO	cytopathic effect	EC50		<15 µM
Cn1cc(C(=O)NCc2ccc(Cl)cc2)c(=O)c2cc(CN3CCOCC3)ccc21	VERO	plaque count	EC50	KOS-M2	>20 µM
Nc1nc2c(ncn2CCCCO)c(=O)[nH]1	VERO	plaque count	EC50	C42 (acyclovir-resistant)	>200 µM
Nc1nc(=O)n([C@@H]2O[C@H](CO)[C@@H](O)[C@@H]2F)cc1I	HELF	plaque count	EC50	MP	0.008 µg/mL
Nc1nc(=O)n([C@@H]2O[C@H](CO)[C@@H](O)[C@@H]2F)cc1I	VERO	plaque count	EC50	V3	0.25 µM
Nc1nc(=S)n([C@@H]2O[C@H](CO)[C@@H](O)[C@@H]2O)cc1/C=C/c1ccccc1	RPMI8226	cytopathic effect	EC50	KOS (TK+)	>258.7 µM
CC(C)=CCc1cc(-c2coc3cc(O)cc(O)c3c2=O)cc(O)c1O	CV-1	plaque count	EC50	HF	>10 µg/mL
C[C@H]1[C@H](O)[C@@H](CO)O[C@H]1n1cc(Br)c(N)nc1=O	RPMI8226	cytopathic effect	EC50	Hangai	1.42 µg/mL
Cc1cn([C@@H]2O[C@H](CO)[C@@H](O)[C@@H]2F)c(=O)[nH]c1=O	HELF	plaque count	EC50	CHR-3	0.006 µg/mL
Nc1nc2c(ncn2CC[C@H](O)CO)c(=O)[nH]1	VERO	plaque count	EC50	7935-72	8 µM
O=c1[nH]c(=O)n([C@H]2C[C@H](O)[C@@H](CO)O2)cc1/C=C/Br	VERO	plaque count	EC50	KOS	2.1 µM
C[C@H]1[C@H](O)[C@@H](CO)O[C@H]1n1cc(I)c(N)nc1=O	RPMI8226	cytopathic effect	EC50	A4-3	>100 µg/mL
CCCCCCCC/C=C/CCCCCCCC(=O)O	HEL	cytopathic effect	EC50	HU-5	>100 µM
CC(C)(C)c1cn([C@H]2C[C@H](O)[C@@H](CO)S2)c(=O)[nH]c1=O	E6SM	cytopathic effect	EC50	KOS McIntyre F	0.73 µM
O=c1ccn([C@@H]2O[C@H](CO)[C@@H](O)[C@H]2O)c(=O)[nH]1	HELF	plaque count	EC50	V3	>1000 µM
Cc1cn([C@@H]2O[C@H](CO)[C@@H](O)[C@@H]2O)c(=S)nc1N	RPMI8226	cytopathic effect	EC50	A4-3 (TK-)	>275.1 µM
Nc1nc2c(ncn2COCCO)c(=O)[nH]1	HELF	plaque count	EC50	CHR-3	0.049 µg/mL
O=c1[nH]c(=O)n([C@H]2C[C@H](O)[C@@H](CO)O2)cc1I	VERO	plaque count	EC50	KOS-M1	0.8 µM
CCCc1cn([C@H]2C[C@H](O)[C@@H](CO)O2)c(=O)[nH]c1=O	E6SM	cytopathic effect	EC50	KOS McIntyre F	5.4 µM
Cc1cn([C@H]2C[C@H](O)[C@@H](CO)O2)c(=S)nc1N	RPMI8226	cytopathic effect	EC50	KOS (TK+)	36.4 µM
O=c1[nH]c(=O)n([C@H]2C[C@H](O)[C@@H](CO)S2)cc1C1CCCCC1	E6SM	cytopathic effect	EC50	KOS McIntyre F	7 µM
CCc1cn([C@H]2C[C@H](O)[C@@H](CO)O2)c(=O)[nH]c1=O	HELF	plaque count	EC50	42-78	180 µM
Nc1nc2c(ncn2CCC(O)CO)c(=O)[nH]1	VERO	plaque count	EC50	C42 ACV-R	>200 µM
[N-]=[N+]=N[C@@H]1[C@@H](OP(=O)(O)OC[C@H]2O[C@@H](n3cnc4c(N)ncnc43)[C@H](OP(=O)(O)OCCOCn3cnc4c(=O)[nH]c(N)nc43)[C@H]2N=[N+]=[N-])[C@H](n2cnc3c(N)ncnc32)O[C@@H]1CO	PRK	cytopathic effect	EC50	F	2 µg/mL
Nc1nc2c(ncn2COCCO)c(=O)[nH]1	VERO	plaque count	EC50	PAA-resistant	7.4 µg/mL
CCc1cn([C@@H]2O[C@H](CO)[C@@H](O)[C@@H]2O)c(=S)nc1N	RPMI8226	cytopathic effect	EC50	KOS (TK+)	15.4 µM
CC1(CO)CCC(Cn2cnc3c(=O)[nH]cnc32)C1(C)C	E6SM	cytopathic effect	EC50	KOS	>200 µg/mL
O=c1[nH]c(=S)n([C@@H]2O[C@H](CO)[C@@H](O)[C@@H]2O)cc1/C=C/c1ccccc1	RPMI8226	cytopathic effect	EC50	KOS (TK+)	>232.9 µM
O=c1[nH]c(=O)n([C@@H]2O[C@H](CO)[C@@H](O)[C@@H]2O)cc1F	HELF	plaque count	EC50	77	55 µM
CC1(CO)CCC(Cn2ccc(=O)[nH]c2=O)C1(C)C	E6SM	cytopathic effect	EC50	TK-/TK+ (VMW 1837)	300 µg/mL
Cc1cn([C@@H]2O[C@H](CO)[C@@H](O)[C@@H]2F)c(=O)[nH]c1=O	VERO	plaque count	EC50	V3	0.85 µM
CCc1cn([C@H]2C[C@H](O)[C@@H](CO)O2)c(=S)[nH]c1=O	RPMI8226	cytopathic effect	EC50	KOS (TK+)	0.32 µM
O=c1[nH]c(=O)n([C@H]2C[C@H](O)[C@@H](CO)O2)cc1/C=C/Br	HELF	plaque count	EC50	77	0.026 µM
CCCCCCCC/C=C\CCCCCCCOCCOP(=O)(O)CO[C@H](CO)Cn1cnc2c(N)ncnc21	MRC-5	hybridisation	EC90		0.0009 µM
Cc1cn([C@@H]2O[C@H](CO)[C@@H](O)[C@@H]2F)c(=O)[nH]c1=O	VERO	plaque count	EC50	RE6	0.51 µM
O=C(OC[C@H]1O[C@@H](OC(=O)c2cc(O)c(O)c(O)c2)[C@H](O)[C@@H](OC(=O)c2cc(O)c(O)c(O)c2)[C@@H]1O)c1cc(O)c(O)c(O)c1	A549	plaque count	EC50	F	0.061 µg/mL
O=c1[nH]c(=O)n([C@H]2C[C@H](O)[C@@H](CO)O2)cc1/C=C/Br	HEL	cytopathic effect	EC50	KOS	0.015 µM
Nc1ncnc2c1ncn2[C@@H]1O[C@H](CO)[C@@H](O)[C@H]1OP(=O)(O)OC[C@H]1O[C@@H](n2cnc3c(N)ncnc32)[C@H](OP(=O)(O)OC[C@H]2O[C@@H](n3cc(/C=C/Br)c(=O)[nH]c3=O)C[C@@H]2O)[C@@H]1O	PRK	cytopathic effect	EC50	B2006 (TK-)	>100 µg/mL
CCCCCCCCCCCCOC(=O)c1cc(O)c(O)c(O)c1	CV-1	plaque count	EC50	HF	>10 µg/mL

Repeating the final 6 entries:

{"structure": "CCCCCCCC/C=C\\CCCCCCCOCCOP(=O)(O)CO[C@H](CO)Cn1cnc2c(N)ncnc21", "cell line": "MRC-5", "read by": "hybridisation", "endpoint": "EC90", "value": "0.0009 µM"}
{"structure": "Cc1cn([C@@H]2O[C@H](CO)[C@@H](O)[C@@H]2F)c(=O)[nH]c1=O", "cell line": "VERO", "read by": "plaque count", "endpoint": "EC50", "strain or isolate": "RE6", "value": "0.51 µM"}
{"structure": "O=C(OC[C@H]1O[C@@H](OC(=O)c2cc(O)c(O)c(O)c2)[C@H](O)[C@@H](OC(=O)c2cc(O)c(O)c(O)c2)[C@@H]1O)c1cc(O)c(O)c(O)c1", "cell line": "A549", "read by": "plaque count", "endpoint": "EC50", "strain or isolate": "F", "value": "0.061 µg/mL"}
{"structure": "O=c1[nH]c(=O)n([C@H]2C[C@H](O)[C@@H](CO)O2)cc1/C=C/Br", "cell line": "HEL", "read by": "cytopathic effect", "endpoint": "EC50", "strain or isolate": "KOS", "value": "0.015 µM"}
{"structure": "Nc1ncnc2c1ncn2[C@@H]1O[C@H](CO)[C@@H](O)[C@H]1OP(=O)(O)OC[C@H]1O[C@@H](n2cnc3c(N)ncnc32)[C@H](OP(=O)(O)OC[C@H]2O[C@@H](n3cc(/C=C/Br)c(=O)[nH]c3=O)C[C@@H]2O)[C@@H]1O", "cell line": "PRK", "read by": "cytopathic effect", "endpoint": "EC50", "strain or isolate": "B2006 (TK-)", "value": ">100 µg/mL"}
{"structure": "CCCCCCCCCCCCOC(=O)c1cc(O)c(O)c(O)c1", "cell line": "CV-1", "read by": "plaque count", "endpoint": "EC50", "strain or isolate": "HF", "value": ">10 µg/mL"}